## Deep mutational scan of the Zika virus protease

The measurements come from Ni et al. 2025 (doi:10.1038/s41467-025-63602-z).

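Mutant virus pools were grown in human Huh-7.5 cells. The effect is the change in frequency of a mutant, normalised to wild type, as a mean of three replicate libraries (two for positions 207-308). The study looked for pockets that tolerate few changes, as a guide for inhibitor design.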

The scanned region of Zika virus MR766 is shown below (positions 1-308): NS2B is 2-131, NS3 begins at position 132.
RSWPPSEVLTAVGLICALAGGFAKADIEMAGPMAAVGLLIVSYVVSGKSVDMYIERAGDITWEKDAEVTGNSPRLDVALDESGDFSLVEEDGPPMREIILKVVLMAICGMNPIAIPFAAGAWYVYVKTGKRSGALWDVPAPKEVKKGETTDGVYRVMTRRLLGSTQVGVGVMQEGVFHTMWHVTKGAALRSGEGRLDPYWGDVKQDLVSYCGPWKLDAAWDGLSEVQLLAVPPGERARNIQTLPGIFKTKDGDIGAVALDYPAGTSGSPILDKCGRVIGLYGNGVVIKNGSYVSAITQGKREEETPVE

The number is log2 of the effect relative to wild type; negative values mean reduced growth, higher values better tolerance.
Substitutions are written as wild-type residue, site number, new residue.
All changes here are to phenylalanine.
The authors count -1 or higher as tolerated. Position 1 is the last residue of NS2A.
Six mutants with high scores were retested singly and none clearly outgrew wild type, so positive values are not proof of better growth.
The region was split into three libraries (1-103, 104-206, 207-308).

Q166F gave -4.76. V167F read -5.61. For G168F the result was -4.59. With V169F the assay gave -5.68. With G170F the assay gave -5.58.

For V171F the result was -5.56. M172F gave -2.66. Q173F gave -2.07. E174F gave -4.29. G175F read -4.61.

For V176F the result was -4.21. H178F read -4.86. With T179F the assay gave -5.86. With M180F the assay gave -4.31. For W181F the result was -5.15.

With H182F the assay gave -3.82. With V183F the assay gave -5.56. T184F gave -5.73. For K185F the result was -5.30. With G186F the assay gave -4.58.

With A187F the assay gave -5.16. A188F read -5.39. L189F read -4.10. R190F read -4.34. S191F read -4.59.

With G192F the assay gave -5.46. E193F gave -4.33. G194F gave -5.79. For R195F the result was -5.40. For L196F the result was -4.61.

With D197F the assay gave -6.44. P198F read -6.71. For Y199F the result was -1.22. W200F read -6.09. With G201F the assay gave -5.30.

D202F read -5.69. V203F read -6.24. With K204F the assay gave -7.02. Q205F read -6.70. With D206F the assay gave -6.40.

For L207F the result was -7.39. For V208F the result was -7.79. S209F gave -5.67. Y210F gave -6.63. With C211F the assay gave -2.94.

G212F gave -6.45. For P213F the result was -2.22. With W214F the assay gave -7.24. For K215F the result was -6.51. L216F read -7.32.

For D217F the result was -4.03. With A218F the assay gave -6.30. A219F read 0.28. W220F read -6.23. With D221F the assay gave -5.88.

Extract of 7 entries:

mutation	log2 growth effect
A187F	-5.16
A218F	-6.30
G212F	-6.45
E193F	-4.33
D202F	-5.69
V171F	-5.56
D197F	-6.44